Pooled drug test results. Numbers come from NIAID ChemDB, via PubChem.

Shared fields: growth or infection tests; agent: HIV-1; cells: MT-2; measure: EC50

a–b is a range or a potency band. ECn: concentration that inhibits the pathogen or its effect by n%. Conditions beyond the fields shown may differ between rows.

{"smiles": "Nc1nc(NC2CC2)c2ncn([C@H]3C=C[C@@H](CO)C3)c2n1", "strain or isolate": "Site-directed mutant", "changes": "RT-K65R Q151M", "method": "cytopathic effect / XTT", "result": ">25 µM"}
{"smiles": "CCc1c(Sc2ccccc2)n(COCc2ccccc2)c(=O)[nH]c1=O", "strain or isolate": "TIBO-RS", "method": "cytopathic effect", "result": "0.25 ± 0.01 µM"}
{"smiles": "O=C(Nc1nccs1)c1cccc(CN2C(=O)N(Cc3ccc4[nH]ncc4c3)[C@H](Cc3ccccc3)[C@H](O)[C@@H](O)[C@H]2Cc2ccccc2)c1", "strain or isolate": "RF WT", "result": "<0.008 µM"}
{"smiles": "O=S1(=O)[C@@H](Cc2ccccc2)[C@@H](OCc2ccccc2)[C@@H](O)[C@H](O)[C@H](OCc2ccccc2)[C@@H]1Cc1ccccc1", "strain or isolate": "IIIB", "method": "cytopathic effect / XTT", "result": "10–50 µM"}
{"smiles": "CC(C)=CCN1Cc2cccc3[nH]c(=S)n(c23)C[C@@H]1C", "strain or isolate": "PDBC", "method": "RT activity", "result": "0.26 µM"}
{"smiles": "Nc1nc2c(ncn2[C@H]2C=C[C@@H](CO)C2)c(=O)[nH]1", "strain or isolate": "NL4-3 WT", "method": "cytopathic effect / XTT / RT activity", "setting": "5 d", "result": "0.3 µM"}
{"smiles": "Cc1c(O)cccc1C(=O)N[C@@H](CSc1ccccc1)[C@H](O)CN1C[C@H]2CCCC[C@H]2C[C@H]1C(=O)NC(C)(C)C", "strain or isolate": "IIIB", "method": "cytopathic effect / XTT", "result": "0.006 µM"}
{"smiles": "Nc1nc2c(ncn2[C@H]2CO[C@@H](CO)O2)c(=O)[nH]1", "changes": "RT-M41L K70R T215Y K219Q", "result": "0.22 µM"}
{"smiles": "CC(C)CN(C[C@@H](O)[C@H](Cc1ccccc1)NC(=O)[C@H](CC(N)=O)NC(=O)c1ccc2ccccc2n1)C(=O)NC(C)(C)C", "strain or isolate": "RF", "changes": "PR-G48V I54V A71T V82A", "result": "1.79 µM"}
{"smiles": "O=C1N(Cc2ccc3[nH]ncc3c2)[C@H](CCc2ccccc2)[C@@H](O)[C@@H](Cc2ccccc2)N1Cc1ccc2[nH]ncc2c1", "strain or isolate": "RF", "result": "<0.006 µM"}
{"smiles": "Cc1c(Sc2ccccc2)n(COCCO)c(=O)[nH]c1=O", "strain or isolate": "IIIB", "method": "cytopathic effect / MTT", "result": "20.1 µM"}
{"smiles": "Nc1nc(NC2CC2)c2ncn([C@H]3C=C[C@@H](CO)C3)c2n1", "changes": "RT-delta67 K103N", "method": "p24", "result": "0.268 µM"}
{"smiles": "Cc1cn([C@H]2C=C[C@@H](CO)O2)c(=O)[nH]c1=O", "strain or isolate": "Clinical isolate", "changes": "D67N/T69N/K70R/K103N/M184V/T215F/K219Q", "method": "recombinant virus assay", "result": "0.624 µM"}
{"smiles": "CO[P@](=O)(c1cc(C)cc(/C=C/C#N)c1)c1c(C(N)=O)[nH]c2ccc(Cl)cc12", "strain or isolate": "Clinical isolate", "changes": "K103N/Y181C", "result": "0.0057 µM"}
{"smiles": "O=C(/C=C/c1ccc(O)c(O)c1)O[C@@H]1CC(O)(C(=O)O)C[C@@H](OC(=O)/C=C/c2ccc(O)c(O)c2)C1O", "strain or isolate": "LAI", "result": "2 µM"}
{"smiles": "N[C@@H](Cc1ccc(O)cc1)C(=O)O.O=C(/C=C/c1ccc(O)c(O)c1)O[C@@H]1C[C@](O)(C(=O)O)C[C@@H](O)[C@H]1O", "strain or isolate": "IIIB", "method": "cytopathic effect / neutral red", "result": "0.5 µg/mL"}
{"smiles": "COC(=O)C(=O)OC1(C(=O)O)C[C@@H](OC(=O)/C=C/c2ccc(O)c(O)c2)C(O)[C@H](OC(=O)/C=C/c2ccc(O)c(O)c2)C1", "strain or isolate": "LAI", "result": "7 µM"}
{"smiles": "O=S1(=O)[C@H](Cc2ccccc2)[C@H](OCc2cncs2)[C@H](O)[C@@H](O)[C@@H](OCc2cncs2)[C@H]1Cc1ccccc1", "strain or isolate": "IIIB", "method": "cytopathic effect / XTT", "result": "<2 µM"}
{"smiles": "CCc1c([Se]c2ccccc2)n(COCc2ccccc2)c(=O)[nH]c1=O", "strain or isolate": "Nevirapine-resistant", "method": "cytopathic effect", "result": "0.38 ± 0.22 µM"}
{"smiles": "CC(C)=CCN1Cc2cccc3[nH]c(=S)n(c23)C[C@@H]1C", "strain or isolate": "IIIB", "method": "cytopathic effect / MTT", "result": "0.13 µM"}
{"smiles": "Nc1ccn([C@H]2CC[C@@H](CO)O2)c(=O)n1", "strain or isolate": "PDBC", "method": "RT activity", "result": "0.2 µM"}
{"smiles": "O=S1(=O)[C@H](Cc2ccccc2)[C@H](OCc2ccccn2)[C@H](O)[C@@H](O)[C@@H](OCc2ccccn2)[C@H]1Cc1ccccc1", "strain or isolate": "IIIB", "method": "cytopathic effect / XTT", "result": "2–10 µM"}
{"smiles": "Nc1cccc(CN2C(=O)N(Cc3ccc4[nH]ncc4c3)[C@H](Cc3ccccc3)[C@H](O)[C@@H](O)[C@H]2Cc2ccccc2)c1", "strain or isolate": "RF WT", "result": "<0.011 µM"}
{"smiles": "Cc1cccc(C)c1OCC(=O)N[C@@H](Cc1ccccc1)[C@@H](O)C[C@H](Cc1ccccc1)NC(=O)[C@H](C(C)C)N1CCCNC1=O", "strain or isolate": "LAI", "method": "MTT", "result": "0.032 µM"}
{"smiles": "Cc1cn([C@H]2C[C@H](N=[N+]=[N-])[C@@H](CO)O2)c(=O)[nH]c1=O", "strain or isolate": "RT P119S L214F", "changes": "RT-P119S L214F", "method": "p24", "result": "0.018 µM"}
{"smiles": "Cc1c(O)cccc1C(=O)N[C@@H](CSc1ccccc1)[C@H](O)CN1C[C@H]2CCCC[C@H]2C[C@H]1C(=O)NC(C)(C)C", "strain or isolate": "NL4-3:IN7-3)", "result": "0.02 µM"}
{"smiles": "Nc1ccn([C@H]2CC[C@@H](CO)O2)c(=O)n1", "strain or isolate": "A17", "changes": "Pyridinone- and TIBO-resistant", "method": "cytopathic effect / MTT", "result": "~0.1 µg/mL"}
{"smiles": "Nc1ncnc2c1ncn2CCOCP(=O)(O)O", "strain or isolate": "IIIB", "method": "cytopathic effect / XTT", "result": "13.4 µM"}
{"smiles": "CC(C)CN(C[C@@H](O)[C@H](Cc1ccccc1)NC(=O)O[C@H]1CCOC1)S(=O)(=O)c1ccc(N)cc1", "strain or isolate": "LAI", "method": "MTT", "result": "0.05 µM"}
{"smiles": "O=C(Cn1cccn1)c1cccc(CN2C(=O)N(Cc3ccc4[nH]ncc4c3)[C@H](Cc3ccccc3)[C@H](O)[C@@H](O)[C@H]2Cc2ccccc2)c1", "strain or isolate": "RF", "result": "<0.015 µM"}
{"smiles": "Cc1cn([C@H]2C=C[C@@H](CO)O2)c(=O)[nH]c1=O", "strain or isolate": "LAI WT", "method": "cytopathic effect / MTT", "result": "5.6 µM"}
{"smiles": "Nc1nc(=O)n([C@@H]2CS[C@H](CO)O2)cc1F", "strain or isolate": "LAI", "method": "cytopathic effect / XTT", "result": "0.6 µM"}
{"smiles": "Nc1nc(=O)n([C@@H]2CS[C@H](CO)O2)cc1F", "strain or isolate": "Clinical isolate", "changes": "D67N/T69N/K70R/A98G/M184V/G190S/T215F/K219Q", "method": "recombinant virus assay", "result": ">13.3 µM"}
{"smiles": "O=c1[nH]cnc2c1ncn2[C@H]1CC[C@@H](CO)O1", "strain or isolate": "NL4-3", "changes": "INTG-G140S", "result": "0.3 µM"}
{"smiles": "Nc1ncnc2c1ncn2CCOCP(=O)(O)O", "strain or isolate": "HXB2D (RT-K65R)", "changes": "RT-K65R", "method": "XTT", "result": ">120 µM"}
{"smiles": "O=C1N(Cc2cccc(CCO)c2)[C@H](Cc2ccccc2)[C@H](O)[C@@H](O)[C@@H](Cc2ccccc2)N1Cc1ccc2[nH]ncc2c1", "strain or isolate": "RF", "result": "<0.017 µM"}
{"smiles": "COc1cccc(CO[C@@H]2[C@H](O)[C@@H](O)[C@@H](OCc3cccc(OC)c3)[C@@H](Cc3ccccc3)S(=O)(=O)[C@@H]2Cc2ccccc2)c1", "strain or isolate": "IIIB", "method": "cytopathic effect / XTT", "result": "<2 µM"}
{"smiles": "Nc1ncnc2c1ncn2CCOCP(=O)(O)O", "strain or isolate": "IIIB (BI-RG-587-RS)", "method": "cytopathic effect / MTT", "result": "17.6 µM"}
{"smiles": "Cc1cn([C@H]2C=C[C@@H](CO)O2)c(=O)[nH]c1=O", "strain or isolate": "IIIB", "method": "cytopathic effect / XTT", "result": "8 µM"}
{"smiles": "Nc1nc2c(ncn2[C@H]2CO[C@@H](CO)O2)c(=O)[nH]1", "changes": "RT-Q151M V75I", "method": "cytopathic effect / MTT", "result": ">50 µM"}
{"smiles": "Nc1ncnc2c1ncn2CCOCP(=O)(O)O", "strain or isolate": "HXB2", "method": "p24", "result": "1.4 µM"}
{"smiles": "Cc1cn([C@H]2C[C@H](N=[N+]=[N-])[C@@H](CO)O2)c(=O)[nH]c1=O", "strain or isolate": "IIIB", "method": "cytopathic effect / XTT", "result": "0.9 µM"}
{"smiles": "Nc1ccc(CN2C(=O)N(Cc3ccc4[nH]ncc4c3)[C@H](Cc3ccccc3)[C@H](O)[C@@H](O)[C@H]2Cc2ccccc2)cc1-n1cncn1", "strain or isolate": "RF WT", "result": "<0.035 µM"}
{"smiles": "C[C@H](Cn1cnc2c(N)ncnc21)OCP(=O)(O)O", "strain or isolate": "1391-4 high AZT resistance (RT D67 K70 T215)", "changes": "RT-D67 K70 T215", "method": "p24", "result": "0.5 µM"}
{"smiles": "Cc1ccnc2c1NC(=O)c1cccnc1N2C1CC1", "strain or isolate": "Nevirapine-resistant", "method": "cytopathic effect", "result": "4.5 ± 1 µM"}
{"smiles": "O=[N+]([O-])c1cccc(CO[C@@H]2[C@H](O)[C@@H](O)[C@@H](OCc3cccc([N+](=O)[O-])c3)[C@@H](Cc3ccccc3)S(=O)(=O)[C@@H]2Cc2ccccc2)c1", "strain or isolate": "IIIB", "method": "cytopathic effect / XTT", "result": "<2 µM"}
{"smiles": "Nc1ccn([C@H]2CC[C@@H](CO)O2)c(=O)n1", "changes": "RT-delta67 K103N", "method": "p24", "result": "0.199 µM"}
{"smiles": "O=c1[nH]cnc2c1ncn2[C@H]1CC[C@@H](CO)O1", "strain or isolate": "IIIB (BI-RG-587-RS)", "method": "cytopathic effect / MTT", "result": "20.8 µM"}
{"smiles": "O=C(Nc1ccccn1)c1cccc(CN2C(=O)N(Cc3ccc4[nH]ncc4c3)[C@H](Cc3ccccc3)[C@H](O)[C@@H](O)[C@H]2Cc2ccccc2)c1", "strain or isolate": "RF", "result": "<0.005 µM"}
{"smiles": "Cc1cn([C@H]2C[C@H](N=[N+]=[N-])[C@@H](CO)O2)c(=O)[nH]c1=O", "strain or isolate": "IIIB", "changes": "8374-P47 GS-8374-resistant", "method": "ATP", "result": "0.265 µM"}
{"smiles": "O=c1[nH]cnc2c1ncn2[C@@H]1O[C@H](CO)C[C@@H]1F", "strain or isolate": "RT P119S V179D L214F", "changes": "RT-P119S V179D L214F", "method": "p24", "result": "29 µM"}
{"smiles": "Nc1nc2c(ncn2[C@H]2CC[C@@H](CO)O2)c(=O)[nH]1", "strain or isolate": "IIIB", "method": "cytopathic effect / XTT / RT activity", "setting": "5 d", "result": "4.1 µM"}
{"smiles": "Cc1cn([C@H]2C[C@H](N=[N+]=[N-])[C@@H](CO)O2)c(=O)[nH]c1=O", "strain or isolate": "NL4-3", "changes": "RT-A360T", "method": "p24", "result": "0.007 µM"}
{"smiles": "O=c1[nH]cnc2c1ncn2[C@H]1CC[C@@H](CO)O1", "strain or isolate": "MB48 ddI-resistant", "method": "cytopathic effect / XTT / RT activity", "setting": "5 d", "result": "20 µM"}
{"smiles": "O=[N+]([O-])c1ccc(CO[C@@H]2[C@H](O)[C@@H](O)[C@@H](OCc3ccc([N+](=O)[O-])cc3)[C@@H](Cc3ccccc3)S(=O)(=O)[C@@H]2Cc2ccccc2)cc1", "strain or isolate": "IIIB", "method": "cytopathic effect / XTT", "result": "<2 µM"}
{"smiles": "COC(=O)N[C@H](C(=O)N[C@@H](Cc1ccccc1)[C@@H](O)CN(Cc1ccc(-c2ccccn2)cc1)NC(=O)[C@@H](NC(=O)OC)C(C)(C)C)C(C)(C)C", "strain or isolate": "IIIB", "changes": "L441P", "method": "p24 / ELISA", "result": "0.0011 µM"}
{"smiles": "Cc1ccc(NC(=O)c2cccc(CN3C(=O)N(Cc4ccc5[nH]ncc5c4)[C@H](Cc4ccccc4)[C@H](O)[C@@H](O)[C@H]3Cc3ccccc3)c2)nc1", "strain or isolate": "RF", "result": "<0.004 µM"}
{"smiles": "Cc1ccc(S(=O)(=O)N(CC(C)C)C[C@@H](O)[C@H](Cc2ccccc2)NC(=O)O[C@H]2CO[C@H]3OCC[C@H]32)cc1", "strain or isolate": "IIIB", "changes": "8374-P62", "method": "ATP", "result": "0.0138 µM"}
{"smiles": "Cc1cc(C)cc(O[C@@H]2[C@H](O)[C@@H](O)[C@@H](Oc3cc(C)cc(C)c3)[C@@H](Cc3ccccc3)S(=O)(=O)[C@@H]2Cc2ccccc2)c1", "strain or isolate": "IIIB", "method": "cytopathic effect / XTT", "result": "<2 µM"}
{"smiles": "Cn1c2ccccc2c2c1cc(C#N)c(=O)n2-c1ccc([N+](=O)[O-])cc1", "strain or isolate": "HXB2", "changes": "Remodeled TAMs (K70G V75T L228R K219R)", "result": "9.4 µM"}
{"smiles": "Nc1ccc(CN2C(=O)N(Cc3ccc4[nH]ncc4c3)[C@H](Cc3ccccc3)[C@H](O)[C@@H](O)[C@H]2Cc2ccccc2)cc1-n1ccnn1", "strain or isolate": "RF", "result": "<0.038 µM"}
{"smiles": "O=c1[nH]cnc2c1ncn2[C@H]1CC[C@@H](CO)O1", "strain or isolate": "RT A62V/V75I/F77L/F116Y/Q151M", "changes": "RT-A62V V75I F77L F116Y Q151M", "method": "p24", "result": "20 µM"}

Repeating the final 3 entries:

{"smiles": "Cn1c2ccccc2c2c1cc(C#N)c(=O)n2-c1ccc([N+](=O)[O-])cc1", "strain or isolate": "HXB2", "changes": "Remodeled TAMs (K70G V75T L228R K219R)", "result": "9.4 µM"}
{"smiles": "Nc1ccc(CN2C(=O)N(Cc3ccc4[nH]ncc4c3)[C@H](Cc3ccccc3)[C@H](O)[C@@H](O)[C@H]2Cc2ccccc2)cc1-n1ccnn1", "strain or isolate": "RF", "result": "<0.038 µM"}
{"smiles": "O=c1[nH]cnc2c1ncn2[C@H]1CC[C@@H](CO)O1", "strain or isolate": "RT A62V/V75I/F77L/F116Y/Q151M", "changes": "RT-A62V V75I F77L F116Y Q151M", "method": "p24", "result": "20 µM"}